Laboratory results as given in patent US20070015818A1, “Cyclic sulfone containing retroviral protease inhibitors” (G.D. Searle & Co. (now G.D. Searle, LLC), priority 1995, published 2007).

What was measured:
HIV protease = HIV protease (Human immunodeficiency virus type 1 group M subtype B, UniProt P04585); assay: HIV protease enzyme assay (fluorogenic substrate); format: biochemical; details: concentration reducing HIV protease activity by 50%; substrate 2-aminobenzoyl-Ile-Nle-Phe(p-NO2)-Gln-ArgNH2, pH 6.4
Experimental: The compounds of the present invention are effective HIV protease inhibitors. […] The calculated IC50 indicates the concentration providing inhibition of 50%, i.e., the concentration at which the inhibitor compound reduces enzyme activity by 50%). The enzyme method is described below. The substrate is 2-aminobenzoyl-Ile-Nle-Phe(p-NO2)-Gln-ArgNH2. The positive control is MVT-101 [Miller, M. et al, Science, 246, 1149 (1989)]. The assay conditions are as follows: Assay buffer: 20 mM sodium phosphate, pH 6.4
The above described substrate is dissolved in DMSO, then diluted 10 fold in assay buffer. Final substrate concentration in the assay is 80 IM.
HIV protease is diluted in the assay buffer to a final concentration of glycerol is 18%. The test compound is dissolved in DMSO and diluted in DMSO to 10× the test concentration; […] of the enzyme preparation is added, the materials mixed and then the mixture is incubated at ambient temperature for 15 minutes. The enzyme reaction is initiated by the addition of […] of substrate. The increase in fluorescence is monitored at 4 time points (0, 8, 16 and 24 minutes) at ambient temperature. Each assay is carried out in duplicate wells.

HIV = assay: EC50 of Table 1 (antiviral activity, method not described); format: cell-based

With `CC(C)CCN(C[C@@H](O)[C@H](Cc1ccccc1)NC(=O)C1CCCS(=O)(=O)C1)C(=O)NC(C)(C)C` (some centres unmarked) the IC50 (HIV protease) was 13 nM and the EC50 (HIV) was 63 nM.
